Assay results from patent US20190038613A1, “COMBINATION THERAPY” (Eli Lilly and Company, priority 2016, published 2019).

Biological target: T1, Aβ […] peptide (Homo sapiens)
T1 construct: flowing pE3-42 Aβ peptide or Aβ 1-40 peptide, starting from 100 nM
Assay: Binding affinity and kinetics by surface plasmon resonance (BIACORE 3000)
Details: SPR, peptide 100 nM down to 3.125 nM, 25° C.
Description: The binding affinity and kinetics of an anti-[…] […] The binding affinity is measured by capturing the anti-[…] Aβ antibody via immobilized protein A on a BIACORE® CMS chip, and flowing pE3-42 Aβ peptide or Aβ 1-40 peptide, starting from 100 nM in 2-fold serial dilution down to 3.125 nM. The experiments are carried out at 25° C. in HBS-EP buffer (GE Healthcare BR100669; 10 mM HEPES, 150 mM NaCl, 3 mM EDTA, 0.05% surfactant P20, pH 7.4). For each cycle, the antibody is captured with 5 μL injection of antibody solution at a 10 μg/mL concentration with 10 μL/min, flow rate. The peptide is bound with 250 μL injection at 50 μL/min, and then dissociated for 10 minutes. The chip surface is regenerated with 5 μL injection of glycine buffer at pH 1.5 at 10 μL/mL flow rate. The data is fit to a 1:1 Langmiur binding model to derive kon, koff, and to calculate KD.

| Molecule | binding to Aβ 1-40 |
| --- | --- |
| Antibody I: anti-N3pGlu Abeta antibody with LC of SEQ ID NO: 12 and HC of SEQ ID NO: 11 (antibody) heavy: QVQLVQSGAEVKKPGSSVKVSCKASGYTFTDYYINWVRQAPGQGLEWMGWINPGSGNTKYNEKFKGRVTITADESTSTAYMELSSLRSEDTAVYYCTREGETVYWGQGTLVTVSSASTKGPSVFPLAPSSKSTSGGTAALGCLVKDYFPEPVTVSWNSGALTSGVHTFPAVLQSSGLYSLSSVVTVPSSSLGTQTYICNVNHKPSNTKVDKKV[human IgG1 Fc not listed] light: DVVMTQSPLSLPVTLGQPASISCKSSQSLLYSRGKTYLNWFQQRPGQSPRRLIYDVSKLDSGVPDRFSGSGSGTDFTLKISRVEAEDVGVYYCVQGTHYPFTFGQGTKLEIKRTVAAPSVFIFPPSDEQLKSGTASVVCLLNNFYPREAKVQWKVDNALQSGNSQESVTEQDSKDSTYSLSSTLTLSKADYEKHKVYACEVTHQGLSSPVTKSFNRGEC | No appreciable binding |
| Antibody II: anti-N3pGlu Abeta antibody with LC of SEQ ID NO: 13 and HC of SEQ ID NO: 11 (antibody) heavy: QVQLVQSGAEVKKPGSSVKVSCKASGYTFTDYYINWVRQAPGQGLEWMGWINPGSGNTKYNEKFKGRVTITADESTSTAYMELSSLRSEDTAVYYCTREGETVYWGQGTLVTVSSASTKGPSVFPLAPSSKSTSGGTAALGCLVKDYFPEPVTVSWNSGALTSGVHTFPAVLQSSGLYSLSSVVTVPSSSLGTQTYICNVNHKPSNTKVDKKV[human IgG1 Fc not listed] light: DIQMTQSPSTLSASVGDRVTITCKSSQSLLYSRGKTYLNWLQQKPGKAPKLLIYAVSKLDSGVPSRFSGSGSGTEFTLTISSLQPDDFATYYCVQGTHYPFTFGQGTKLEIKRTVAAPSVFIFPPSDEQLKSGTASVVCLLNNFYPREAKVQWKVDNALQSGNSQESVTEQDSKDSTYSLSSTLTLSKADYEKHKVYACEVTHQGLSSPVTKSFNRGEC | No appreciable binding |
